Changes are numbered by the printed parent chain.
B1: CR6262 (antibody, V domains shown)
VH: QVQLQQSGAEVKKPGSSVKVSCKVSGVIFSGSAISWVRQAPGQGLEWMGGISPLFGTTNYAQKFQGRVTITADQSTNTTYMEVNSLRYEDTAVYFCARGPKYYSEYMDVWGKGTTVTVSS
VL: DIQMTQSPSSLSASVGDRVTITCRASQGISSYLAWYQQKPGKVPTLLIYDASTLRSGVPSRFSGSGSATDFTLTISSLQPEDVATYYCQRYNSAPPITFGQGTRLEIKR
notes: human IgG1
B2: CR6268 (antibody, V domains shown)
VH: QVQLVQSGAEVKKPGSSVKVSCKASGGTFSSYAISWVRQAPGQGLEWMGGIMGMFGTTNYAQKFQGRVTITADEFTSAAYMELRSLRSEDTAVYYCARSSGYYPEYFQDWGQGTLVTVSS
VL: QSVLTQPPSESVSPGQTASVTCSGHKLGDKYVSWYQQKPGQSPVLLIYQDNRRPSGIPERFIGSNSGNTATLTISGTQALDEADYYCQAWDSSTAVFGGGTKLTVLG
notes: human IgG1
B3: CR6272 (antibody, V domains shown)
VH: QMQLVQSGAEVKKPGSSVKVSCKASGGTFSSYAITWVRQAPGQGLEWMGGIIGMFGSTNYAQNFQGRVTITADESTSTAYMELSSLRSEDTAVYYCARSTGYYPAYLHHWGQGTLVTVSS
VL: QSALTQPRSVSGSPGQSVTISCTGTSSDVGGYNYVSWYQQHPGKAPKLMIYDVSKRPSGVPDRFSGSKSGNTASLTISGLQAEDEADYYCSSYTSSSTHVFGTGTKVTVLG
notes: human IgG1
B4: CR6307 (antibody, V domains shown)
VH: QVQLVQSGGGLVKPGGSLRLSCAASGFTFSSYSMNWVRQAPGKGLEWVSSISSSSSYIYYVDSVKGRFTISRDNAKNSLYLQMNSLRAEDTAVYYCARGGGSYGAYEGFDYWGQGTLVTVSS
VL: EIVLTQSPGTLSLSPGERATLSCRASQRVSSYLAWYQQKPGQAPRLLIYGASTRAAGIPDRFSGSGSGTDFTLTISRLEPEDSAVYYCQQYGRTPLTFGGGTKVEIKR
notes: human IgG1
B5: CR6325 (antibody, V domains shown)
VH: EVQLVESGAEVKKPGSSVKVSCKASGGTFSFYSMSWVRQAPGQGLEWMGGIIPMFGTTNYAQKFQGRVTITAVESTSTAYMEVSSLRSEDTAVYYCARGDKGIYYYYMDVWGKGTTVTVSS
VL: B3 VL with R8A, V18I, D52E, K55N, P61S, D62N, H99L
notes: human IgG1
B6: CR6329 (antibody, V domains shown)
VH: EVQLVQSGAEVKKPGSSVKVSCKASGGIFRSNSISWVRQAPGQGLEWMGGIFALFGTTDYAQKFQGRVTITADESSTTVYLELSSLTSEDTAVYYCARGSGYTTRNYFDYWGQGTLVTVSS
VL: EIVLTQSPGTLSLSPGERATLSCRASQSVSSNYLGWYQQKPGQAPRLLIYGASSRASGIPDRFSGGGSGTDFTLTISRLEPEDFAVYYCQQYGSSPLTFGGGTKVEIKR
notes: human IgG1
B7: CR6332 (antibody, V domains shown)
VH: QVQLVQSGAEVKKPGSSVKVSCKASGGPFRNFAINWVRQAPGQGLEWMGGIIAVFGTTKYAHKFQGRVTITADDSTNTAYMELGSLKSEDTAVYYCARGPHYYSSYMDVWGEGTTVTVSS
VL: DIQLTQSPSSLSASVGDRVTITCRASQGISTYLAWYQQKPGKVPKLLIYAASTLQSGVPSRFSGSGSGTDFTLTISSLQPEDVATYYCQKYNSAPSFGPGTKVDIKR
notes: human IgG1
B8: CR6334 (antibody, V domains shown)
VH: EVQLVETGAEVKKPGSSVKVPCKSSGSPFRSNAVSWVRQAPGQGLEWVGGILGVFGSPSYAQKFQGRVTITADESTNTVHMELRGLRSEDTAVYYCARGPTYYYSYMDVWGKGTTVTVSS
VL: SYVLTQPPSESVAPGQTARITCGGNNIGRNSVHWYQQKPGQAPVLVVYDDSDRPSGIPERFSGSKSGNTATLIISRVEVGDEADYYCQVWHSSSDHYVFGTGTKVTVLG
notes: human IgG1
B9: CR6336 (antibody, V domains shown)
VH: B2 VH with V2M, M52F, T58A, R84S, R87G, V93M, E105Q
VL: B6 VL with L4M, E17Q, N32S, G35A, I49M, S57T, G66S, P96S, V105L
notes: human IgG1
B10: CR6342 (antibody, V domains shown)
VH: QVQLVQSGAEVKKPGSSVKVSCKASGGFFSSYAISWVRQAPGQGLEWMGGVIPIFRTANYAQNFQGRVTITADEFTSYMELSSLRSDDTAVYYCARLNYHDSGTYYNAPRGWFDPWGQGTLVTVSS
VL: DIQMTQSPDSLAVSLGEKATINCKSSQSILNSSNNKNYLAWYQQKPGQPPKLLIYWASTRESGVPDRFSGSGSGTDFTLTISSLQAEDVAVYYCQQYYSSPPTFGQGTKVEIKR
notes: human IgG1
B11: CR6343 (antibody, V domains shown)
VH: QVQLVQSGAEVKKPGSSVKVSCKASGVTFSYYAMSWVRQAPGQGLEWMGGISPMFGTTTYAQKFQGRVTITADDSTSTAYMEVRSLRSEDTAVYYCARSSNYYDSVYDYWGQGTLVTVSS
VL: B8 VL with S1Q, Y2S, L4V, N25H, R29S, D50N, K65N, I73T, V79A, H91G
notes: human IgG1
B12: CR6344 (antibody, V domains shown)
VH: QVQLVQSGAEVKKPGSSVRVSCKASGSIFRNYAMSWVRQAPGQGLEWMGGIIAIFGTPKYAQKFQGRVTITADESTSTVYMELSGLRSEDTAMYYCARIPHYNFGSGSYFDYWGQGTLVTVSS
VL: TVLTQPPSVSGAPGQRVTISCTGSSSNIGAGYDVHWYQQLPGTAPKLLIYGNSNRPSGVPDRFSGSKSGTSATLGITGLQTGDEADYYCGTWDSSLSAYVFGTGTKVTVLG
notes: human IgG1
B13: CR6257 (antibody, V domains shown)
VH: QVQLVQSGAEVKKPGSSVKVSCKASGGPFRSYAISWVRQAPGQGPEWMGGIIPIFGTTKYAPKFQGRVTITADDFAGTVYMELSSLRSEDTAMYYCAKHMGYQVRETMDVWGKGTTVTVSS
VL: B3 VL with R8A, S9A, V18I, D52E, K55N, P61S, D62N, H99Y
notes: human IgG1

Biological target: HA in BPL-inactivated virus preparation of A/New Caledonia/20/99 (H1N1) (influenza A virus A/New Caledonia/20/99 …)
Assay: ELISA, IgG 5 µg/ml

Binder	OD 492nm
B1	0.51 OD 492nm
B2	1.39 OD 492nm
B3	0.92 OD 492nm
B4	0.23 OD 492nm
B5	1.09 OD 492nm
B6	1.04 OD 492nm
B7	1.2 OD 492nm
B8	1.13 OD 492nm
B9	1.09 OD 492nm
B10	1.32 OD 492nm
B11	0.91 OD 492nm
B12	1.31 OD 492nm
B13	1.34 OD 492nm

From EP2450379B1 (Crucell Holland B.V., dated 2015)
